Data as given in patent US20260384408A1, “SUBSTITUTED BENZODIAZEPINES AS FUNGICIDES” (published 2026).

Key:
Botrytis cinerea [1] = assay: Long lasting control of Botrytis cinerea on leaves of green pepper (greenhouse); conditions: 63 ppm, inoculated 7 days after spraying, assessed after 5 days, untreated 90% infected
Botrytis cinerea [2] = assay: Preventative fungicidal control of Botrytis cinerea on leaves of green pepper (greenhouse); conditions: inoculated next day, assessed after 5 days, untreated 90% infected
Sclerotinia sclerotiorum [3] = assay: Preventative fungicidal control of white mold on oilseed rape caused by Sclerotinia sclerotiorum (greenhouse); conditions: 100 g/ha, 14 days, untreated 100% infected
Sclerotinia sclerotiorum [4] = assay: Preventative fungicidal control of white mold on soybeans caused by Sclerotinia sclerotiorum (greenhouse); conditions: 250 ppm, inoculated next day, 6 days, untreated 100% infected
Cercospora beticula = conditions: 31 ppm; relative to compound-free control (100%)
Pyricularia oryzae = conditions: 31 ppm; relative to compound-free control (100%)
Alternaria solani = conditions: 31 ppm; relative to compound-free control (100%)
Cercospora zeae maydis = conditions: 31 ppm; relative to compound-free control (100%)
Sclerotinia sclerotiorum [5] = assay: Preventative fungicidal control of white mold on cabbage caused by Sclerotinia sclerotiorum (greenhouse); conditions: 125 ppm, 8 days, untreated 80% infected

SMILES	growth of the pathogen (% diseased leaf area) (Botrytis cinerea [1])	growth of the pathogen (% diseased leaf area) (Botrytis cinerea [2]; 250 ppm)	growth of the pathogen (% diseased leaf area) (Sclerotinia sclerotiorum [3])	growth of the pathogen (% diseased leaf area) (Sclerotinia sclerotiorum [4])	other results
CCCN1C(=O)C(C)(C)N=C(c2cnc(C(F)F)c(C)c2)c2cccc(F)c21	at most 17%	at most 13%			
CCN1C(=O)C(C)(C)N=C(c2cnc(C(F)F)c(C)c2)c2cccc(F)c21	at most 17%	at most 13%			
Cc1cc(C2=NC(=O)C(C)(C)N(Cc3ccccc3)c3ccccc32)cnc1C(F)F			at most 2%		
Cc1cc(C2=NC(C)(C)C(=O)N(C(C)C)c3c(F)cccc32)cnc1C(F)F	at most 17%	at most 13%			
Cc1cc(C2=NC(C)(C)C(=O)N(C)c3c(F)cccc32)cnc1C(F)F	at most 17%	at most 13%			
Cc1cc(C2=NC3(CC3)CN(C)c3c(F)cccc32)cnc1C(F)F		at most 13%	at most 2%	at most 14%	
Cc1cc(C2=NCCN(C)c3c(F)cccc32)cnc1C(F)F				at most 14%	
C#CCN1c2c(F)cccc2C(c2cnc(C(F)F)c(C)c2)=N[C@@H](C)[C@@H]1C (racemic)					growth of the pathogen (relative growth) (Cercospora beticula): up to 18%; growth of the pathogen (relative growth) (Pyricularia oryzae): up to 22%; growth of the pathogen (relative growth) (Alternaria solani): up to 21%; growth of the pathogen (relative growth) (Cercospora zeae maydis): up to 17%; growth of the pathogen (% diseased leaf area) (Botrytis cinerea [2]; 125 ppm): at most 22%
C#CCN1c2c(F)cccc2C(c2cnc(C(F)F)c(C)c2)=N[C@@H](C)[C@H]1C (racemic)					growth of the pathogen (relative growth) (Cercospora beticula): up to 18%; growth of the pathogen (% diseased leaf area) (Sclerotinia sclerotiorum [5]): at most 20%; growth of the pathogen (relative growth) (Cercospora zeae maydis): up to 17%; growth of the pathogen (% diseased leaf area) (Botrytis cinerea [2]; 125 ppm): at most 22%
C=C(C)CN1c2c(F)cccc2C(c2cnc(C(F)F)c(C)c2)=N[C@@H](C)[C@H]1C (racemic)					growth of the pathogen (relative growth) (Cercospora beticula): up to 18%; growth of the pathogen (% diseased leaf area) (Sclerotinia sclerotiorum [5]): at most 20%; growth of the pathogen (relative growth) (Cercospora zeae maydis): up to 17%; growth of the pathogen (% diseased leaf area) (Botrytis cinerea [2]; 125 ppm): at most 22%
Cc1cc(C2=N[C@@H](C)[C@@H](C)N(C)c3c(F)cccc32)cnc1C(F)F (racemic)		at most 13%	at most 2%	at most 14%	
Cc1cc(C2=N[C@@H](C)[C@H](C)N(C)c3c(F)cccc32)cnc1C(F)F (racemic)		at most 13%	at most 2%	at most 14%	
